Measurements taken from the NIST ThermoML archive (doi:10.1016/j.jct.2018.04.005).
Numbers after ± are expanded uncertainties.

Assays:
[1] = 100 kPa, Liquid, Vibrating tube method
[2] = xn = mol fraction of the nth substance listed; settings: 100 kPa, Liquid, Vibrating tube method

CCCCOP(=O)(OCCCC)OCCCC [tributyl phosphate]
[1]
Settings | mass density [kg/m3]
293.15 K | 976.92 ± 4
298.15 K | 972.79 ± 4
303.15 K | 968.59 ± 4
308.15 K | 964.16 ± 4
313.15 K | 959.93 ± 4
318.15 K | 956.18 ± 4
323.15 K | 951.94 ± 4

CCCCOP(=O)(OCCCC)OCCCC [tributyl phosphate] + CCCC[n+]1ccn(C)c1.O=S(=O)([N-]S(=O)(=O)C(F)(F)F)C(F)(F)F
mass density [kg/m3], [2]
Settings | x2 = 0.0659 | x2 = 0.137 | x2 = 0.2139 | x2 = 0.2974 | x2 = 0.3884 | x2 = 0.4879 | x2 = 0.5971 | x2 = 0.7175 | x2 = 0.8511
293.15 K | 1009.68 ± 11 | 1044.63 ± 11 | 1082.25 ± 10 | 1121.58 ± 10 | 1164.45 ± 10 | 1210.73 ± 10 | 1260.68 ± 9.9 | 1314.9 ± 9.9 | 1375.5 ± 9.9
298.15 K | 1005.53 ± 11 | 1040.39 ± 11 | 1077.87 ± 10 | 1117.07 ± 10 | 1159.94 ± 10 | 1205.98 ± 10 | 1255.68 ± 9.9 | 1309.6 ± 9.8 | 1369.84 ± 9.8
303.15 K | 1001.37 ± 11 | 1036.18 ± 11 | 1073.68 ± 10 | 1112.92 ± 10 | 1155.77 ± 10 | 1201.85 ± 10 | 1251.66 ± 9.9 | 1305.63 ± 9.9 | 1366.03 ± 9.8
308.15 K | 996.93 ± 11 | 1031.72 ± 11 | 1069.25 ± 10 | 1108.44 ± 10 | 1151.25 ± 10 | 1197.24 ± 10 | 1247.04 ± 9.9 | 1301.11 ± 9.9 | 1361.36 ± 9.8
313.15 K | 992.72 ± 11 | 1027.43 ± 11 | 1064.92 ± 10 | 1104.11 ± 10 | 1146.79 ± 10 | 1192.76 ± 10 | 1242.51 ± 9.9 | 1296.33 ± 9.8 | 1356.59 ± 9.8
318.15 K | 988.96 ± 11 | 1023.57 ± 11 | 1061.02 ± 10 | 1100.24 ± 10 | 1142.87 ± 10 | 1188.7 ± 10 | 1238.42 ± 9.9 | 1292.14 ± 9.8 | 1352.27 ± 9.8
323.15 K | 984.71 ± 11 | 1019.22 ± 11 | 1056.6 ± 10 | 1095.81 ± 10 | 1138.41 ± 10 | 1184.09 ± 10 | 1233.83 ± 9.8 | 1287.39 ± 9.8 | 1347.43 ± 9.8
